Legend:
L. major promastigotes = assay: Leishmanicidal activity against L. major promastigotes (MTT assay); assay type: cell-based, Leishmania major; conditions: ratio CC50 in macrophages / IC50 of L. major parasites
Description: (§1) Promastigotes. L. major (clone VI, MHOM/IL/80) and L. infantum (clone, BCN-150) parasites were cultured at 26 °C under continuous shaking in M199 1× medium (Sigma, St. Louis, MO, USA) supplemented with heat-inactivated fetal bovine serum (FBS), 25 mM HEPES (pH 7), 0.1 mM adenine, 0.0005% (w/v) haemin, […], 0.0005% (w/v) biotin, 100 IU/mL penicillin and […]. For each experiment, the culture medium was changed everyday in order to achieve parasite in exponential growth phase.
(§2) In order to determine the leishmanicidal activity of the compounds obtained in this study, promastigotes of L. major and L. infantum strains were seeded in 96-well plates (3 ×·10^6 parasite/mL) in exponential growth phase at increasing concentrations (1–500 μM) of the compounds and maintained at 26 °C. After 48 h of incubation, the IC50 was determined by MTT assay. The absorbance was measured in a MultiskanEX photometric plate reader for microplates at 540 nm. Data were obtained from three independent experiments performed in triplicate.

[1] = system: L. infantum promastigotes; assay: Leishmanicidal activity against L. infantum promastigotes (MTT assay); assay type: cell-based, Leishmania infantum; conditions: ratio CC50 in macrophages / IC50 of L. infantum parasites
Description: as §1, §2

| Structure (SMILES) | SI L. major (L. major promastigotes) | SI L. infantum [1] |
| --- | --- | --- |
| NC[C@@H]1O[C@H](O[C@H]2[C@@H](O)[C@H](O[C@@H]3[C@@H](O)[C@H](N)C[C@H](N)[C@H]3O[C@H]3O[C@H](CO)[C@@H](O)[C@H](O)[C@H]3N)O[C@@H]2CO)[C@H](N)[C@@H](O)[C@@H]1O [PMN, paromomycin, reference compound] | 0.6 | 2.2 |
| CCCCCCCCCCCCCCCCOP(=O)([O-])OCC[N+](C)(C)C [MIL, miltefosine, reference compound] | 0.2 | 0.4 |

— PMC10420963, “Exploring Novel Drug Combinations: The Therapeutic Potential of Selanyl Derivatives for Leishmania Treatment” (Molecules, 2023)
